PubChem BioAssay AID504761 – Drosophila RNAi Screening Center | 2011
In all, the deposit lists about 22,000 reagents; shown is a random part of those with a known target gene and a result. Over the whole deposit, 116 (0.52%) were called active. 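Calls depend on retest data that are not deposited; infection was ranked per plate without normalising between plates; the unit of the infection score is not given.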 The numbers tell different reagents against one gene apart. Names joined by + are all predicted targets of the reagent. Not all columns of the deposit are shown. Not stated in the record: the amount of reagent, the time to read-out.

- Aim: 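Fly genes whose silencing reduces dengue virus type 2 infection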 (primary screen)
- System: D.Mel-2 cells from Drosophila
- Reagent: long dsRNA against Drosophila genes
- Treatment: infection with dengue virus type 2; dose and infection time not stated
- Detection: 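Per well on two replicate plates, imaging gave the percent of cells positive for viral envelope protein, ranked by infection, and a nuclear count of cells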
- Direction: infection score: higher = more virus-infected cells
- Active means: 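Very low infection ranking in both replicate wells (chance probability at most 0.065), then a retest showing infection dropped 1.5-fold or more at p below 0.05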
- Calls: active = confirmed: knock-down lowers infection; inactive = not picked or not confirmed

With knock-down of path (pathetic), the record shows infection score, replicate 1 = 3.74; inactive. Knock-down of Gpxl (Glutathione peroxidase-like) came out at: infection score, replicate 1 = 1.09; inactive. With knock-down of dunk (disrupted underground network) #1 the results were infection score, replicate 1 = 0.55; inactive. Against dunk (disrupted underground network) #2, the entry reads infection score, replicate 1 = 2.43; inactive. prel (preli-like) gave infection score, replicate 1 = 11.9; inactive. CG14322 showed infection score, replicate 1 = 1.8; inactive.

CG7131 #1 scored infection score, replicate 1 = 3.3; inactive. Silencing of CG7131 #2 came out at: infection score, replicate 1 = 22.5; inactive. CG43897 #1 scored infection score, replicate 1 = 3.2; inactive. Against CG43897 #2 the deposit lists infection score, replicate 1 = 1.97; inactive. With knock-down of Rab9Db + Rab9D + Rab9E, the screen gave infection score, replicate 1 = 1; inactive.

2 consecutive records already listed:
CG43897 #2: infection score, replicate 1 = 1.97; activity call = inactive
Rab9Db + Rab9D + Rab9E: infection score, replicate 1 = 1; activity call = inactive

Continued.
Prp6 (pre-mRNA processing factor 6) #1 showed infection score, replicate 1 = 3.47; inactive. Prp6 (pre-mRNA processing factor 6) #2 scored infection score, replicate 1 = 10.7; inactive. Against SmydA-8 (SET and MYND domain containing, arthropod-specific, member 8) #1, the values are infection score, replicate 1 = 3.09; inactive. For SmydA-8 (SET and MYND domain containing, arthropod-specific, member 8) #2, the entry reads infection score, replicate 1 = 1.81; inactive. For CG16984 #1, the values are infection score, replicate 1 = 4.62; inactive. For CG16984 #2 the deposit lists infection score, replicate 1 = 9.32; inactive.

Silencing of Sp212 (Serine-peptidase 212) #1 gave: infection score, replicate 1 = 2.9; inactive. Depletion of Sp212 (Serine-peptidase 212) #2 came out at: infection score, replicate 1 = 14.4; inactive. With knock-down of CG14143 #1 the results were infection score, replicate 1 = 7.46; inactive. After knock-down of CG14143 #2 the results were infection score, replicate 1 = 2.86; inactive.
